Measurements reported in PubChem BioAssay AID1259414 (Drosophila RNAi Screening Center, 2018).
Screen: 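Host factors increasing or decreasing Wolbachia levels in cultured fly cells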 (primary screen). Cells: Drosophila JW18 cells infected with Wolbachia. Knock-down reagent: long dsRNA against Drosophila genes, 0.25 µg dsRNA per well of a 384-well plate. Time to read-out: 5 days. Conditions: cells persistently infected with Wolbachia before knock-down; no added drug. Detection: 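Automated imaging of bacterial rRNA staining divided by host cell count, reported as plate-normalised robust z-score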. Direction: Wolbachia per cell robust z: higher = more Wolbachia per host cell than the plate typical. Hit rule: 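Active if absolute robust z reaches 1.5 in two or more of three replicates, leaving out multi- or no-target dsRNAs, genes unexpressed in JW18 and A1 wells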.
The deposit covers about 24,000 reagents; this is a random part of those that have a named target and a result. Of all reagents, about 1,210 (5%) were called active. 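Inactive calls also include excluded dsRNAs with several or no targets, genes unexpressed in JW18, and well A1, regardless of score.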 Reagents against one gene are numbered here. No sequences are given here.

Pect #1 → Wolbachia per cell robust z, rep 1 = 0.155; Wolbachia per cell robust z, rep 2 = -0.979; Wolbachia per cell robust z, rep 3 = -0.312; Call = inactive
Pect #2 → Wolbachia per cell robust z, rep 1 = 2.41; Wolbachia per cell robust z, rep 2 = 0.867; Wolbachia per cell robust z, rep 3 = 1.71; Call = active
Klp59D #1 → Wolbachia per cell robust z, rep 1 = -3.47; Wolbachia per cell robust z, rep 2 = 0.473; Wolbachia per cell robust z, rep 3 = 0.43; Call = inactive
Klp59D #2 → Wolbachia per cell robust z, rep 1 = -0.81; Wolbachia per cell robust z, rep 2 = -0.0561; Wolbachia per cell robust z, rep 3 = 0.0527; Call = inactive
Klp59D #3 → Wolbachia per cell robust z, rep 1 = 0.828; Wolbachia per cell robust z, rep 2 = 0.901; Wolbachia per cell robust z, rep 3 = -0.0169; Call = inactive
CG5543 → Wolbachia per cell robust z, rep 1 = 0.918; Wolbachia per cell robust z, rep 2 = -1.27; Wolbachia per cell robust z, rep 3 = -1.06; Call = inactive
CG9338 #1 → Wolbachia per cell robust z, rep 1 = -0.0325; Wolbachia per cell robust z, rep 2 = -0.339; Wolbachia per cell robust z, rep 3 = -0.0101; Call = inactive
CG9338 #2 → Wolbachia per cell robust z, rep 1 = -0.581; Wolbachia per cell robust z, rep 2 = -0.672; Wolbachia per cell robust z, rep 3 = 0.109; Call = inactive
jdp #1 → Wolbachia per cell robust z, rep 1 = 0.0754; Wolbachia per cell robust z, rep 2 = -3.8; Wolbachia per cell robust z, rep 3 = -0.19; Call = inactive
jdp #2 → Wolbachia per cell robust z, rep 1 = 0.527; Wolbachia per cell robust z, rep 2 = 0.848; Wolbachia per cell robust z, rep 3 = 0.354; Call = inactive
CG42826 → Wolbachia per cell robust z, rep 1 = 0.294; Wolbachia per cell robust z, rep 2 = -3.46; Wolbachia per cell robust z, rep 3 = -0.528; Call = inactive
CG11598 #1 → Wolbachia per cell robust z, rep 1 = -0.0652; Wolbachia per cell robust z, rep 2 = 0.737; Wolbachia per cell robust z, rep 3 = -0.446; Call = inactive
CG11598 #2 → Wolbachia per cell robust z, rep 1 = 0.81; Wolbachia per cell robust z, rep 2 = 0.434; Wolbachia per cell robust z, rep 3 = 0.0417; Call = inactive
Arf4 #1 → Wolbachia per cell robust z, rep 1 = -0.118; Wolbachia per cell robust z, rep 2 = 1.13; Wolbachia per cell robust z, rep 3 = 0.537; Call = inactive
Arf4 #2 → Wolbachia per cell robust z, rep 1 = 0.133; Wolbachia per cell robust z, rep 2 = 0.379; Wolbachia per cell robust z, rep 3 = 1.07; Call = inactive
CG14736 #1 → Wolbachia per cell robust z, rep 1 = -0.927; Wolbachia per cell robust z, rep 2 = 0.0175; Wolbachia per cell robust z, rep 3 = 0.145; Call = inactive
CG14736 #2 → Wolbachia per cell robust z, rep 1 = -1.05; Wolbachia per cell robust z, rep 2 = -1.01; Wolbachia per cell robust z, rep 3 = -0.365; Call = inactive
ninaG → Wolbachia per cell robust z, rep 1 = 0.507; Wolbachia per cell robust z, rep 2 = -3.96; Wolbachia per cell robust z, rep 3 = -0.399; Call = inactive
CG11367 → Wolbachia per cell robust z, rep 1 = 0.222; Wolbachia per cell robust z, rep 2 = 1.36; Wolbachia per cell robust z, rep 3 = 0.313; Call = inactive
Ask1 #1 → Wolbachia per cell robust z, rep 1 = -0.198; Wolbachia per cell robust z, rep 2 = -4.15; Wolbachia per cell robust z, rep 3 = -2.29; Call = active
Ask1 #2 → Wolbachia per cell robust z, rep 1 = -0.869; Wolbachia per cell robust z, rep 2 = -0.755; Wolbachia per cell robust z, rep 3 = -1.63; Call = inactive
piwi → Wolbachia per cell robust z, rep 1 = -5.75; Wolbachia per cell robust z, rep 2 = 0.769; Wolbachia per cell robust z, rep 3 = 0.145; Call = inactive
CG43351 → Wolbachia per cell robust z, rep 1 = -0.262; Wolbachia per cell robust z, rep 2 = -0.102; Wolbachia per cell robust z, rep 3 = 0.297; Call = inactive
kto → Wolbachia per cell robust z, rep 1 = -2.24; Wolbachia per cell robust z, rep 2 = -5.63; Wolbachia per cell robust z, rep 3 = 0.822; Call = active
Proc → Wolbachia per cell robust z, rep 1 = -0.261; Wolbachia per cell robust z, rep 2 = -0.318; Wolbachia per cell robust z, rep 3 = -4.69; Call = inactive
CG31088 #1 → Wolbachia per cell robust z, rep 1 = 0.213; Wolbachia per cell robust z, rep 2 = -0.48; Wolbachia per cell robust z, rep 3 = 0.526; Call = inactive
CG31088 #2 → Wolbachia per cell robust z, rep 1 = 0.171; Wolbachia per cell robust z, rep 2 = -0.355; Wolbachia per cell robust z, rep 3 = 0.537; Call = inactive
CG31199 → Wolbachia per cell robust z, rep 1 = -0.615; Wolbachia per cell robust z, rep 2 = 0.227; Wolbachia per cell robust z, rep 3 = -0.218; Call = inactive
CG14664 → Wolbachia per cell robust z, rep 1 = -0.557; Wolbachia per cell robust z, rep 2 = 0.205; Wolbachia per cell robust z, rep 3 = 0.76; Call = inactive
CG7329 #1 → Wolbachia per cell robust z, rep 1 = 0.304; Wolbachia per cell robust z, rep 2 = -0.00453; Wolbachia per cell robust z, rep 3 = 0.885; Call = inactive
CG7329 #2 → Wolbachia per cell robust z, rep 1 = -0.0902; Wolbachia per cell robust z, rep 2 = 1.07; Wolbachia per cell robust z, rep 3 = -0.82; Call = inactive
